# Measured values reported in US8785452B2, “Anti-infective compounds” (priority 2008, dated 2014).
# Experiments:
# [1] = tested on: M. tuberculosis H37Rv-GFP
# [2] = tested on: M. tuberculosis H37Rv-GFP; settings: confirmation, in vitro growth
structure (smiles),measurement,setting,value
C/C(=N/NC(=O)c1cc([N+](=O)[O-])cc([N+](=O)[O-])c1)c1ccc([N+](=O)[O-])o1,QIM Confirm % Inhibition 0.2 uM,"[1]; confirmation, 0.2 uM, intracellular",42.7%
same,QIM Confirm % Inhibition 2 uM,"[1]; confirmation, 2 uM, intracellular",17.6%
same,QIM Confirm % Inhibition 20 uM,"[1]; confirmation, 20 uM",4.1%
same,Primary QIM % Inhibition,"[1]; primary screen, 20 μM",−57.3%
same,QUM Confirm % Inhibition 0.2 uM,[2]; 0.2 uM,41.1%
same,QUM Confirm % Inhibition 2 uM,[2]; 2 uM,41.9%
same,QUM Confirm % Inhibition 20 uM,[2]; 20 uM,67.6%
